# According to PubChem BioAssay AID1476 (National Center for Advancing Translational Sciences (NCATS), 2009):
# Amino acid sequences for entries named in this document (tags omitted). Residues count along the entry.
# UniProt P25779, 123-467 limits assumed: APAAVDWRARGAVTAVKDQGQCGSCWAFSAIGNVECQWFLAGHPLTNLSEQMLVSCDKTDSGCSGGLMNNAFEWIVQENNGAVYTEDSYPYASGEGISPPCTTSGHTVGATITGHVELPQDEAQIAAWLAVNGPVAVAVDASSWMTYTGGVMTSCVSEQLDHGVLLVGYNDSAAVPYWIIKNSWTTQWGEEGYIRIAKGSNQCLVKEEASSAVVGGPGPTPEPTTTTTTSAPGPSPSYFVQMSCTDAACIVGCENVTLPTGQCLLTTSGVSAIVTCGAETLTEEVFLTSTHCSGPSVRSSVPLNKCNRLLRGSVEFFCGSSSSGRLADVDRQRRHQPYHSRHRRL
# The entries are a selection whose mix differs from that of the whole data set. Results filed as inconclusive are left out. Activity calls are given as the source filed them. Calls follow the shape of the dose curve; as a rule, active = well fitted inhibition curve with a large enough effect; inconclusive = small, poorly fitted or top-dose-only effect, or effect the other way; inactive = flat fitted curve, though single readings scatter.
# Biological target: Cruzipain (Trypanosoma cruzi) (UniProt P25779)
# Experiment: qHTS Assay for Promiscuous and Specific Inhibitors of Cruzain (without detergent);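 also: plate controls were enzyme without inhibitor for no effect and buffer without enzyme for full effect; nearly all actives have a fitted effect of over 40% in size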
# Conditions: purified cruzain, Z-FR-AMC fluorescence, no detergent
row,SMILES,"max response, negative = inhibition"
1,O=C(OC1CN2CCC1CC2)C1c2ccccc2Oc2ccccc21 (stereo not given),inactive: -6.15%
2,O=C(NCC1(N2CCOCC2)CCCCC1)c1cc2ccccc2o1,inactive: -7.67%
3,COc1ccccc1C(=O)NCC1(N2CCOCC2)CCCCC1,inactive: 4.11%
4,COc1ccc(NC2CCN(CCc3ccccc3)CC2)c(OC)c1,inactive: -7.65%
5,O=C(NCC1(N2CCOCC2)CCCCC1)c1ccc(Cl)cc1,inactive: 6.04%
6,O=C(NCC1(N2CCOCC2)CCCCC1)c1cc(=O)[nH]c2ccccc12,inactive: -9.45%
7,CN1CCN(CCOC(=O)C(O)(c2ccccc2)c2ccccc2)CC1,inactive: 4.78%
8,CCCOc1cccc(C(=O)NCC2(N3CCOCC3)CCCCC2)c1,inactive: -3.27%
9,N#CC1(Nc2ccccc2)CCN(CCc2ccccc2)CC1,inactive: -8.3%
10,CCOc1ccc(C(=O)NCC2(N3CCOCC3)CCCCC2)cc1,inactive: 2.22%
11,CCCCOc1ccccc1C(=O)NCC1(N2CCOCC2)CCCCC1,inactive: 7.74%
12,O=C(NCC1(N2CCOCC2)CCCCC1)c1ccccc1Br,inactive: -7.93%
13,NC1CCCCC1.NP(=O)(O)N(CCCl)CCCl,inactive: 12.2%
14,CCOP(=O)(Cl)Cl,inactive: -2.88%
15,O=C(OC1CN2CCC1CC2)C1c2ccccc2C=Cc2ccccc21 (stereo not given),inactive: 2.05%
16,N/C(=N\O)c1c(N)no[n+]1[O-],inactive: -5.13%
17,ClCCOP(OCCCl)OCCCl,inactive: -12.9%
18,c1ccc(CN2CCC(Nc3ccccc3)CC2)cc1,inactive: -6.4%
19,O=C(NCC1(N2CCOCC2)CCCCC1)c1ccccc1,inactive: 2.74%
20,O=C(NCC1(N2CCOCC2)CCCCC1)c1ccccc1[N+](=O)[O-],inactive: -3.72%
21,O=C(NCC1(N2CCOCC2)CCCCC1)c1ccc([N+](=O)[O-])cc1,inactive: 2.37%
22,Cc1ccccc1C(=O)NCC1(N(C)C)CCCCC1,inactive: -4.97%
23,CC(C)(C)c1ccc(C(=O)NCC2(N3CCOCC3)CCCCC2)cc1,inactive: 6.29%
24,CCN1CCC(Nc2cccc(F)c2)CC1,inactive: 4.87%
25,Fc1ccccc1NC1CCN(Cc2ccccc2)CC1,inactive: -0.394%
26,CN(C)C1(CNC(=O)c2ccc(C(C)(C)C)cc2)CCCCC1,inactive: -3.96%
27,COc1cc(C(=O)NCC2(N3CCOCC3)CCCCC2)cc(OC)c1OC,inactive: -0.175%
28,CCC(CO)(C(=O)OC1CN2CCC1CC2)c1ccccc1 (stereo not given),inactive: -4.35%
29,O=C(O)C1(Nc2ccccc2)CCN(Cc2ccccc2)CC1,inactive: 2.13%
30,CCOc1ncccc1C(=O)NCC1(N2CCOCC2)CCCCC1,inactive: 0.65%
